From patent publication US11737955B2, “Multi-functional micro and nanoparticles for use in root canal therapies” (THE GOVERNING COUNCIL OF THE UNIVERSITY OF TORONTO, priority 2012, dated 2023)

What was measured:
[1] = test system: dentin-collagen; test: Enzymatic degradation of crosslinked dentin-collagen (ninhydrin assay); set-up: species or system human; conditions: collagenase degradation, day 7; control 5 μmol/mL
[2] = test system: dentin collagen; test: Tensile testing of crosslinked dentin-collagen; set-up: species or system bovine

SMILES | amount of amino acid released [1] [µmol/mL] | reduction in toughness ([2]; crosslinked dentin-collagen vs control) [%] | increase in toughness compared to the control group ([2]; photodynamic crosslinking 540 nm, 20 J/cm^2) [%]
O=CCCCC=O [GD, glutaraldehyde] | 0.096 | ~38 | –
O=C1OC2(c3cc(I)c(O)c(I)c3Oc3c2cc(I)c(O)c3I)c2c(Cl)c(Cl)c(Cl)c(Cl)c21 [RB, Rose Bengal] | 0.25 | – | 196
